# Tests used:
# [1] = test system: CC(=O)CC(=O)SCCNC(=O)CCNC(=O)[C@H](O)C(C)(C)COP(=O)(O)OP(=O)(O)OC[C@H]1O[C@@H](n2cnc3c(N)ncnc32)[C@H](O)[C@@H]1OP(=O)(O)O; assay: purified protein; conditions: 0.1 M Tris-HCl pH 8.0, 2 mM DTNB; 2 µM enzyme; substrate up to 1 mM; pH 8.0
# [2] = test system: CCCC(=O)Oc1ccc2c(C)cc(=O)oc2c1; assay: purified protein; conditions: 50 mM Tricine, 0.01% Triton X-100; 2 µM enzyme; substrate up to 8 µM
substance,measurement,setting,value
PqsE (Pseudomonas aeruginosa UCBPP-PA14; R243A/R246A/R247A),Km,[1],2900 ± 200 µM
same,kcat,[1],0.35 s⁻¹
same,kcat/Km,[1],120 M⁻¹ s⁻¹
same,Km,[2],2.2 ± 0.2 µM
same,kcat,[2],0.0562 s⁻¹
same,kcat/Km,[2],26000 M⁻¹ s⁻¹

# From paper PMC12077149, “Evolution of PqsE as a Pseudomonas aeruginosa-specific regulator of LuxR-type receptors: insights from Pseudomonas and Burkholderia” (mBio, 2025)
